Consider one molecule from ChEMBL document CHEMBL3853327 (J Med Chem, 2016).

SMILES strings stand for the structures.

As a reminder, the IC50 is the concentration at which inhibition is half-maximal.

This assay has as its target Human immunodeficiency virus type 1 reverse transcriptase (Human immunodeficiency virus 1, UniProt Q72547, K103N/Y181C). As to the kind of experiment: Inhibition of recombinant HIV1 reverse transcriptase K103N/Y181C double mutant using DIG-dUTP/biotin-dUTP/dTTP assessed as suppression of biotin-dUTP incorporation after 1 hr by ELISA. In general terms: An ELISA detects its analyte on a solid surface through an enzyme-linked reagent.

Regarding `Cc1cc(C#N)cc(C)c1Oc1nc(Nc2ccc(C#N)cc2)nc(N)c1Br` [ETRAVIRINE], the IC50 amounted to 90 nM.
